A mixed list of measured activities; the numbers were collected in NIAID ChemDB.

Shared fields: tests in culture; organism: Cryptococcus neoformans

Lines come from different laboratories, so protocols vary. A number after MIC or MFC names an inhibition level or a share of isolates.

{"smiles": "Clc1ccc(CC(Cc2ccc(-c3ccccc3)cc2)n2ccnc2)cc1", "endpoint": "MFC", "value": "33 µM"}
{"smiles": "N=C(N)c1ccc(OCCCC2CCN(CCCOc3ccc(C(=N)N)cc3)CC2)cc1", "endpoint": "MIC50", "strain or isolate": "33 clinical isolates", "value": "0.0625 µg/mL"}
{"smiles": "COc1cc(C2Oc3ccc4c(=O)c5c(O)cc(O)cc5oc4c3OC2CO)cc(OC)c1O", "method": "broth dilution", "endpoint": "MIC100", "value": ">64 µg/mL"}
{"smiles": "COc1ccccc1-c1cc2cccnc2[nH]1", "endpoint": "MIC100", "strain or isolate": "ATCC90112", "value": "4 µg/mL"}
{"smiles": "Oc1ccc(O)c(C=Nc2ccccc2O)c1", "method": "broth dilution", "endpoint": "MIC", "strain or isolate": "F-10", "value": "11.3 µg/mL"}
{"smiles": "CCC(C)CC(C)CCCCCCCCC(=O)N[C@H]1C[C@@H](O)[C@H](NCCN)NC(=O)[C@@H]2[C@@H](O)CCN2C(=O)[C@H]([C@H](O)CCN)NC(=O)[C@H]([C@H](O)[C@@H](O)c2ccc(O)cc2)NC(=O)[C@@H]2C[C@@H](O)CN2C(=O)[C@H]([C@@H](C)O)NC1=O", "endpoint": "Mean MIC", "strain or isolate": "19 isolates", "value": "23.9 µg/mL"}
{"smiles": "CC(=O)[C@]1(O)Cc2c(O)c3c(c(O)c2[C@@H](O[C@H]2C[C@H](N)[C@H](O)[C@H](C)O2)C1)C(=O)c1ccccc1C3=O", "endpoint": "MIC", "strain or isolate": "Clinical isolate (capsule-negative)", "value": "7.42 µM"}
{"smiles": "CN[C@H]1CC[C@@H](c2ccc(Cl)c(Cl)c2)c2ccccc21", "method": "broth dilution", "endpoint": "MIC90", "strain or isolate": "UM4", "value": "4 µg/mL"}
{"smiles": "C=C1CO[C@H]2[C@@H](C)OC(OC[C@@]34C[C@H]5[C@H](C)CC[C@@H]5[C@@]5(C=O)C[C@@H]3C=C(C(C)C)[C@@]45C(=O)O)C[C@@H]12", "endpoint": "MIC50", "strain or isolate": "137 strains (serotype A)", "value": "0.5 µg/mL"}
{"smiles": "COc1c(O)c2c(=O)cc(OC)c3c4c(OC)cc(=O)c5c(O)c(OC)c6c(c(c1CC(C)=C6OC(C)=O)c23)c54", "endpoint": "MFC", "value": ">100 µg/mL"}
{"smiles": "C[C@@H](c1ncncc1F)[C@](O)(Cn1cncn1)c1ccc(F)cc1F", "endpoint": "MIC50", "strain or isolate": "12 strains", "value": "0.06 µg/mL"}
{"smiles": "O=[N+]([O-])c1ccc(C=Nc2ccccc2O)cc1", "endpoint": "MIC99", "strain or isolate": "27JF", "value": "32 µg/mL"}
{"smiles": "COc1cc(C2C(C#N)=C(N)OC3=C2CSc2ccccc23)ccc1O", "endpoint": "MIC", "strain or isolate": "Farwania", "value": "3 µg/mL"}
{"smiles": "CN[C@@H]1[C@H](O[C@@H]2O[C@H](CO)[C@@H](O)[C@H](S(=O)(=O)O)[C@H]2O)[C@@H](O)[C@H](O[C@H]2c3cc(C)c(C(=O)N[C@H](C)C(=O)O)c(O)c3-c3c(cc4c(c3O)C(=O)c3cc(OC)cc(O)c3C4=O)[C@@H]2O)O[C@@H]1C", "endpoint": "MIC", "strain or isolate": "IAM 4514", "value": "1.6 µg/mL"}
{"smiles": "COc1cccc2c1C(=O)c1c(O)c3c(c(O)c1C2=O)C[C@@](O)(C(C)=O)C[C@@H]3O[C@H]1C[C@H](N)[C@H](O)[C@H](C)O1", "endpoint": "MIC", "strain or isolate": "NCPF 3379", "value": ">100 µM"}
{"smiles": "Cc1nc(NCCCCNc2ccnc3cc(Cl)ccc23)nc(-c2ccccc2[N+](=O)[O-])c1C(=O)OC(C)C", "endpoint": "MIC", "strain or isolate": "ATCC 24067", "value": "5.7 µg/mL"}
{"smiles": "C[C@@H]1CCC2(OC1)OC1CC3C4C[C@H](OC5O[C@@H](CO)[C@H](O)[C@@H](O)[C@@H]5O)[C@H]5C[C@@H](OC6O[C@H](CO)[C@@H](O)[C@H](O)[C@H]6O)CC[C@]5(C)C4CC[C@]3(C)C1[C@@H]2C", "endpoint": "MFC", "strain or isolate": "ATCC 90113", "value": ">20 µg/mL"}
{"smiles": "Oc1ccccc1C=Nc1ccccc1O", "endpoint": "MIC99", "strain or isolate": "VM-MCMMPI", "value": "5.7 µg/mL"}
{"smiles": "COc1ccc(CC(Cc2ccc(-c3ccccc3)cc2)n2ccnc2)cc1", "endpoint": "MFC", "value": "33 µM"}
{"smiles": "CCCCCCCCOc1ccc(NC(=O)C(CC(=O)OC(C)(C)C)NC(=O)[C@]2(O)C[C@@H](O)C(O)[C@H](OC(=O)/C=C/c3ccc(O)c(O)c3)C2)cc1", "endpoint": "MIC80", "strain or isolate": "ATCC 32045", "value": "1 µg/mL"}
{"smiles": "COc1ccc(-c2cc3cc(C)cnc3[nH]2)cc1", "endpoint": "MIC100", "strain or isolate": "ATCC90112", "value": "7.8 µg/mL"}
{"smiles": "COc1ccccc1CC(Cc1ccc(-c2ccccc2)cc1)n1ccnc1", "endpoint": "MFC", "value": "33 µM"}
{"smiles": "N=C(N)c1ccc(OCCCC(O)COc2ccc(C(=N)N)cc2)cc1", "endpoint": "MFC", "strain or isolate": "114.96", "value": "3.12 µg/mL"}
{"smiles": "N=C(N)c1ccc2nc(CCCc3nc4ccc(C(=N)N)cc4[nH]3)[nH]c2c1", "endpoint": "MIC80", "strain or isolate": "H99", "value": ">100 µg/mL"}
{"smiles": "COc1cccc2c1C(=O)c1c(O)c3c(c(O)c1C2=O)C[C@@](O)(C(=O)CO)C[C@@H]3O[C@H]1C[C@H](N)[C@@H](O)[C@H](C)O1", "endpoint": "MIC", "strain or isolate": "NCPF 3379", "value": ">100 µM"}
{"smiles": "COc1ccc(-c2c(C#N)c(OC)nc3c2CSc2ccc(Cl)cc2-3)cc1O", "endpoint": "MIC", "strain or isolate": "Farwania", "value": "6 µg/mL"}
{"smiles": "COC1CC2CCC(C)C(O)(O2)C(=O)C(=O)N2CCCCC2C(=O)OC(C(C)CC2CCC(O)C(OC)C2)CC(=O)C(C)/C=C(\\C)C(O)C(OC)C(=O)C(C)C[C@](C)(N(O)C(=O)NN2CCCCC2)/C=C/C=C/C=C/1C", "endpoint": "MFC", "strain or isolate": "WILD TYPE", "value": "3.12 µg/mL"}
{"smiles": "N=C(N)c1ccc(NCCCNc2ccc(C(=N)N)cc2[N+](=O)[O-])c([N+](=O)[O-])c1", "endpoint": "MIC80", "strain or isolate": "119.95", "value": "1.56 µg/mL"}
{"smiles": "Oc1cccc(C=Nc2ccccc2O)c1", "method": "broth dilution", "endpoint": "MIC", "strain or isolate": "27JF", "value": "4 µg/mL"}
{"smiles": "COc1ccc2c(c1)-c1nc(OC)c(C#N)c(-c3ccc4c(c3)OCO4)c1CS2", "endpoint": "MIC", "strain or isolate": "93/V", "value": "12.5 µg/mL"}
{"smiles": "O=C(Oc1cc2cc(Br)cnc2[nH]1)c1ccccc1", "endpoint": "MIC100", "strain or isolate": "ATCC90112", "value": "7.8 µg/mL"}
{"smiles": "N=C(N)c1ccc2nc(-c3cccc(-c4nc5ccc(C(=N)N)cc5[nH]4)n3)[nH]c2c1", "endpoint": "MFC", "strain or isolate": "H99", "value": ">100 µg/mL"}
{"smiles": "COc1ccc(-c2cc3cc(Cl)cnc3[nH]2)c(C)c1", "endpoint": "MIC100", "strain or isolate": "ATCC90112", "value": "15.6 µg/mL"}
{"smiles": "C[C@@H](c1ncncc1F)[C@](O)(Cn1cncn1)c1ccc(F)cc1F", "method": "broth dilution", "endpoint": "MIC", "strain or isolate": "B 36203", "value": "0.016 µg/mL"}
{"smiles": "COc1c(O)ccc2c(=O)c3c(O)cc4c(c3oc12)C(C)(C)C(C)O4", "method": "broth dilution", "endpoint": "MIC100", "value": ">64 µg/mL"}
{"smiles": "CC(C)N=C(N)c1ccc2nc(-c3ccc(CCc4ccc(-c5nc6ccc(C(N)=NC(C)C)cc6[nH]5)cc4)cc3)[nH]c2c1", "endpoint": "MIC80", "strain or isolate": "H99", "value": "0.39 µg/mL"}
{"smiles": "N#CC1=C(N)OC2=C(CSc3ccccc32)C1c1ccc(-c2ccccc2)cc1", "endpoint": "MIC", "strain or isolate": "25", "value": "25 µg/mL"}
{"smiles": "Cc1cnc2[nH]c(-c3ccccc3)cc2c1", "endpoint": "MIC100", "strain or isolate": "ATCC90112", "value": "7.8 µg/mL"}
{"smiles": "CCN(CC)c1ccc2cc(NNN)c(=O)oc2c1", "method": "broth dilution", "endpoint": "MIC", "strain or isolate": "ATCC", "value": ">990 µM"}
{"smiles": "CCNC(=S)N/N=C(\\N)c1ccccn1", "endpoint": "MIC100", "strain or isolate": "ATCC 62066", "value": ">416.7 µM"}
{"smiles": "Oc1ccccc1N=Cc1ccc2c(c1)OCO2", "endpoint": "MIC99", "strain or isolate": "ATCC 62066", "value": "2.8 µg/mL"}
{"smiles": "C[C@@H](SC1COC(/C=C/C=C/c2ccc(C#N)cc2F)OC1)[C@](O)(Cn1cncn1)c1ccc(F)cc1F", "endpoint": "MIC90", "strain or isolate": "22 strains", "value": "≤0.008 µg/mL"}
{"smiles": "CCOC(=O)c1c(C)nc(NCCCNc2ccnc3cc(Cl)ccc23)nc1-c1ccccc1", "endpoint": "MIC99", "strain or isolate": "ATCC 28957", "value": "1.4 µg/mL"}
{"smiles": "N#CC1=C(c2ccccc2)C2=C(NC1O)c1ccccc1SC2", "endpoint": "MIC", "strain or isolate": "25", "value": "25 µg/mL"}
{"smiles": "N=C(N)c1ccc2nc(CCCCc3nc4ccc(C(=N)N)cc4[nH]3)[nH]c2c1", "endpoint": "MIC80", "strain or isolate": "H99", "value": ">100 µg/mL"}
{"smiles": "C/C=C/C=C(/C)C(=O)O[C@H]1[C@H](O)[C@H](OCC23C4C=C(C(C)C)C2(C(=O)O)C(C=O)(C4)[C@@H]2CC[C@@H](C)[C@H]23)O[C@H](C)[C@H]1OC", "endpoint": "MIC", "strain or isolate": "2867E", "value": "1 µg/mL"}
{"smiles": "COc1cc2oc3cc(O)cc(O)c3c(=O)c2c2c1OC(C)(C)C=C2", "method": "broth dilution", "endpoint": "MIC", "value": ">64 µg/mL"}
{"smiles": "C[C@H]1[C@H](O)[C@@H](C)/C=C/C=C/C=C/C=C/C=C/C=C/C=C/[C@H](O[C@@H]2O[C@H](C)[C@@H](O)[C@H](N)[C@@H]2O)C[C@@H]2O[C@](O)(C[C@@H](O)C[C@@H](O)CC[C@H](O)[C@@H](O)C[C@@H](O)CC(=O)O[C@H]1C)C[C@H](O)[C@H]2C(=O)O", "endpoint": "MIC50", "strain or isolate": "15 isolates", "value": "0.125 µg/mL"}
{"smiles": "c1cc2nc(CCCCc3nc4ccc(C5=NCCN5)cc4[nH]3)[nH]c2cc1C1=NCCN1", "endpoint": "MIC80", "strain or isolate": "H99", "value": ">100 µg/mL"}
{"smiles": "Cc1ccccc1CC(Cc1ccc(-c2ccccc2)cc1)n1ccnc1", "endpoint": "MIC", "value": "33 µM"}
{"smiles": "N=C(N)c1ccc(OCCCCCO)cc1", "endpoint": "MIC80", "strain or isolate": "H99", "value": ">100 µg/mL"}
{"smiles": "COc1ccc(-c2c(C#N)c(OC)nc3c2CSc2ccccc2-3)cc1", "endpoint": "MIC", "strain or isolate": "Farwania", "value": "6 µg/mL"}
{"smiles": "CCOC(=O)c1c(C)nc(OCCCNc2ccnc3cc(Cl)ccc23)nc1-c1ccccc1", "endpoint": "MIC99", "strain or isolate": "96806", "value": "45.3 µg/mL"}
{"smiles": "COC1CC2CCC(C)C(O)(O2)C(=O)C(=O)N2CCCCC2C(=O)OC(C(C)CC2CCC(O)C(OC)C2)CC(=O)C(C)/C=C(\\C)[C@@](O)(c2ccc(C)s2)C(OC)C(=O)C(C)CC(C)/C=C/C=C/C=C/1C", "endpoint": "MFC", "strain or isolate": "WILD TYPE", "value": ">100 µg/mL"}

3 of the rows above, restated:

{"smiles": "N=C(N)c1ccc(OCCCC2CCN(CCCOc3ccc(C(=N)N)cc3)CC2)cc1", "endpoint": "MIC50", "strain or isolate": "33 clinical isolates", "value": "0.0625 µg/mL"}
{"smiles": "N=C(N)c1ccc(NCCCNc2ccc(C(=N)N)cc2[N+](=O)[O-])c([N+](=O)[O-])c1", "endpoint": "MIC80", "strain or isolate": "119.95", "value": "1.56 µg/mL"}
{"smiles": "N=C(N)c1ccc(OCCCC(O)COc2ccc(C(=N)N)cc2)cc1", "endpoint": "MFC", "strain or isolate": "114.96", "value": "3.12 µg/mL"}